The text below walks through data of article PMC3793909.

Data set [1] addresses T1, ComA (Bacillus nematocida B16) (UniProt P14204).
T1 sequence (looked up, limits assumed): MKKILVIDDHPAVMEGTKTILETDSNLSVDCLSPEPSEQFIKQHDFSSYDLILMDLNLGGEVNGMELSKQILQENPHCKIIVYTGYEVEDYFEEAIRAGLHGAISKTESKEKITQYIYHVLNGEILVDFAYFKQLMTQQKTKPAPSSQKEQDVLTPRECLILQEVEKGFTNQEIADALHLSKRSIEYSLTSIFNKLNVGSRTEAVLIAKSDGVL
In words: EMSA. The note with it: 30 ng ComA; recombinant protein; label: biotin 5' end. Background: A gel shift assay detects complexes by their altered migration in electrophoresis.

Data set [2] concerns the target T1, ComA (Bacillus nematocida B16). In words: competition with a labelled probe. The note with it: 50- and 100-fold excess over labeled probe, retarded band faded and disappeared; recombinant protein.

For at least one entry, the source does not settle the construct or the ends of the probe. Tags and fusion partners may be left off the protein sequences shown.

Turning to “CCGATGCTGGCCGCCGGAAGCCTTT (double strand) [bae16 promoter probe -185 to -160 (Q1a/RQ1a)]”, the binding result in data set [1] is on record as “binds”. Regarding “CCGATGCTGGCCGCCGGAAGCCTTT (double strand) [unlabeled bae16 promoter competitor (LQ1/LQ2)]”, the binding result in data set [2] is “binds”.
